Consider 21 molecules from patent US12708649B2, “Compositions and methods for improving skin health and for the treatment and prevention of diseases, disorders and conditions associated with fungi and other pathogenic microbes” (priority 2020, dated 2026).

Where a SMILES comes first, the peptide text is derived from it.

In the first data set the test system is Alcaligenes faecalis DB05646 / Malassezia furfur cultures. Kind of data set: Metabolite profile by LC-MS: DB05646 single culture and co-culture with M. furfur.
Details: not given
In the case of `C=C1CC1C[C@H](NC(=O)CC[C@H](N)C(=O)O)C(=O)O` (some centres unmarked) [gamma-Glutamyl-3-(2-methylenecyclopropyl)alanine], the “Fold of change Coculture vs DB05646” value was 0.1 fold, the “Fold of change Coculture vs M.furfur” value came out at 8.4 fold, the “Fold of change Coculture vs Media” value is 18.6 fold and the “Fold of change DB05646 vs Media” value is given as 198.2 fold. For the same molecule, the “Fold of change M.furfur vs Media” value is listed as 2.2 fold.
Take `O=C(O)/C=C/c1c[nH]cn1` [Urocanic acid]: the “Fold of change Coculture vs DB05646” value is on record as 0.6 fold, the “Fold of change Coculture vs M.furfur” value worked out at 0.1 fold, the “Fold of change Coculture vs Media” value worked out at 17.3 fold and the “Fold of change DB05646 vs Media” value stood at 28.6 fold. Further, the “Fold of change M.furfur vs Media” value is recorded as 271.3 fold.
The like results for `CN(C)CC#N` [(Dimethylamino)acetonitrile] were, in that order, 0.9 fold, 1.4 fold, 63.6 fold, 72.8 fold and 44.6 fold.
For `CCC(O)C(O)C/C=C\C/C=C\CCCCCCCC(=O)O` (centres unmarked) [15,16-DiHODE] the same measures were 1.2 fold, 18.8 fold, 0.1 fold, 0.1 fold and 0.0 fold.

The data set is the same for the next values; noted with them: DB05646-M. furfur co-culture.
As to `N=C(N)NCCCC(=O)C(=O)O` [5-guanidino-2-oxopentanoic acid], the “Fold of change Coculture vs DB05646” value is recorded as 0.5 fold, the “Fold of change Coculture vs M.furfur” value stood at 13.0 fold and the “Fold of change Coculture vs Media” value amounted to 1424.5 fold.
The like results for `CCC(C)c1nccnc1OC` (centres unmarked) [2-sec-Butyl-3-methoxypyrazin] were, in that order, 0.2 fold, 24.2 fold and 31.4 fold.
The like results for Isopropyl methoxy pyrazine were, in that order, 0.5 fold, 37.4 fold and 39.3 fold.
Turning to `O=C(O)CC(=O)O` [malonic acid], the “Fold of change Coculture vs M.furfur” value is “significantly lower”.
Take `CSCC[C@H](NC(C)=O)C(=O)O` [N-Acetylmethionine]: the “Fold of change Coculture vs DB05646” value is reported as 0.9 fold, the “Fold of change Coculture vs M.furfur” value came out at 2.8 fold and the “Fold of change Coculture vs Media” value was found to be 68.4 fold.
For `CCOC(=O)CC(=O)OCC` [Diethyl malonate] the same measures were 0.9 fold, 2.1 fold and 903.6 fold.
For the molecule `O=S(=O)(O)CCCN1CCOCC1` [4-Morpholinepropanesulfonic acid], the “Fold of change Coculture vs DB05646” value amounted to 6713.0 fold, the “Fold of change Coculture vs M.furfur” value amounted to 0.9 fold and the “Fold of change Coculture vs Media” value was found to be 9151.4 fold.
The like results for `NCC(=O)N[C@@H](Cc1ccccc1)C(=O)O` [Gly-Phe] (H-Gly-Phe-OH) were, in that order, 0.3 fold, 79.2 fold and 91.8 fold.
As for `CC(=O)NCCCCCN` [N-Acetylcadaverine], the “Fold of change Coculture vs DB05646” value is reported as 0.9 fold, the “Fold of change Coculture vs M.furfur” value is 1.1 fold and the “Fold of change Coculture vs Media” value is 245.3 fold.
The like results for `CC(C)=CC(=O)NCC(=O)O` [3-Methylcrotonylglycine] were, in that order, 2.7 fold, 1.3 fold and 21.0 fold.
For `OC[C@H]1O[C@@H](n2cnc3c(O)ncnc32)[C@H](O)[C@@H]1O` [Inosine] the same measures were 0.0 fold, 0.0 fold and 0.1 fold.
The like results for `Cn1cccc1` [1-Methyl-1H-pyrrole] were, in that order, 0.8 fold, 4.8 fold and 426.1 fold.
Take `Cc1[nH]c(=O)[nH]c(=O)c1CO` [pentoxyl]: the “Fold of change Coculture vs DB05646” value stood at 0.5 fold, the “Fold of change Coculture vs M.furfur” value came to 200.0 fold and the “Fold of change Coculture vs Media” value was 204.8 fold.
For `COc1cc(C=O)ccc1O` [vanillin] the same measures were 0.9 fold, 1.2 fold and 363.4 fold.
As for `NCCNCCO` [Aminoethylethanolamine], the “Fold of change Coculture vs DB05646” value amounted to 0.7 fold, the “Fold of change Coculture vs M.furfur” value came to 0.5 fold and the “Fold of change Coculture vs Media” value is listed as 7.2 fold.
The like results for `Nc1c2c(O)nc(O)cc2nn1-c1ccccc1` [3-amino-2-phenyl-2H-pyrazolo[4,3-c]pyridine-4,6-diol] were, in that order, 0.5 fold, 6.6 fold and 12.0 fold.
`Cc1c[nH]c(=O)nc1N` [5-Methylcytosine]: the “Fold of change Coculture vs DB05646” value is 1.1 fold, the “Fold of change Coculture vs M.furfur” value stood at 3.6 fold and the “Fold of change Coculture vs Media” value stood at 7.5 fold.

Staying with this data set, now noted: DB05646 single culture, Media 22, 48 hours.
Turning to `N=C(N)NCCCC(=O)C(=O)O` [5-guanidino-2-oxopentanoic acid], the “Fold of change DB05646 vs Media” value worked out at 3090.7 fold.
The same measure, in the same setting: in the case of `CCC(C)c1nccnc1OC` (centres unmarked) [2-sec-Butyl-3-methoxypyrazin] it was 135.2 fold; in that of Isopropyl methoxy pyrazine, 85.1 fold.
Same read-out and setting: the same measure for `CSCC[C@H](NC(C)=O)C(=O)O` [N-Acetylmethionine]: 78.1 fold; for `CCOC(=O)CC(=O)OCC` [Diethyl malonate]: 1040.6 fold; for `O=S(=O)(O)CCCN1CCOCC1` [4-Morpholinepropanesulfonic acid]: 1.4 fold.
For `NCC(=O)N[C@@H](Cc1ccccc1)C(=O)O` [Gly-Phe] (H-Gly-Phe-OH), the “Fold of change DB05646 vs Media” value came out at 305.2 fold.
Same read-out and setting: in the case of `CC(=O)NCCCCCN` [N-Acetylcadaverine] it was 266.7 fold; in that of `CC(C)=CC(=O)NCC(=O)O` [3-Methylcrotonylglycine], 7.8 fold; in that of `OC[C@H]1O[C@@H](n2cnc3c(O)ncnc32)[C@H](O)[C@@H]1O` [Inosine], 303.5 fold.
Same read-out and setting: the same measure for `Cn1cccc1` [1-Methyl-1H-pyrrole]: 511.2 fold; for `Cc1[nH]c(=O)[nH]c(=O)c1CO` [pentoxyl]: 444.9 fold; for `COc1cc(C=O)ccc1O` [vanillin]: 384.0 fold.
`NCCNCCO` [Aminoethylethanolamine]: the “Fold of change DB05646 vs Media” value came out at 10.2 fold.
Same read-out and setting: in the case of `Nc1c2c(O)nc(O)cc2nn1-c1ccccc1` [3-amino-2-phenyl-2H-pyrazolo[4,3-c]pyridine-4,6-diol] it was 26.7 fold; in that of `Cc1c[nH]c(=O)nc1N` [5-Methylcytosine], 6.8 fold.

The same data set, now with this note: M. furfur single culture.
Regarding `N=C(N)NCCCC(=O)C(=O)O` [5-guanidino-2-oxopentanoic acid], the “Fold of change M.furfur vs Media” value amounted to 109.8 fold.
Same read-out and setting: in the case of `CCC(C)c1nccnc1OC` (centres unmarked) [2-sec-Butyl-3-methoxypyrazin] it was 1.3 fold; in that of Isopropyl methoxy pyrazine, 1.1 fold; in that of `CSCC[C@H](NC(C)=O)C(=O)O` [N-Acetylmethionine], 24.1 fold.
Turning to `CCOC(=O)CC(=O)OCC` [Diethyl malonate], the “Fold of change M.furfur vs Media” value turned out to be 439.0 fold.
Same read-out and setting: in the case of `O=S(=O)(O)CCCN1CCOCC1` [4-Morpholinepropanesulfonic acid] it was 10458.3 fold; in that of `NCC(=O)N[C@@H](Cc1ccccc1)C(=O)O` [Gly-Phe] (H-Gly-Phe-OH), 1.2 fold.
Same read-out and setting: in the case of `CC(=O)NCCCCCN` [N-Acetylcadaverine] it was 215.9 fold; in that of `CC(C)=CC(=O)NCC(=O)O` [3-Methylcrotonylglycine], 16.1 fold.
On the same count and under the same terms, the same measure for `OC[C@H]1O[C@@H](n2cnc3c(O)ncnc32)[C@H](O)[C@@H]1O` [Inosine]: 124.0 fold.
Consider `Cn1cccc1` [1-Methyl-1H-pyrrole], for which the “Fold of change M.furfur vs Media” value stood at 88.7 fold.
On the same count and under the same terms, the same measure for `Cc1[nH]c(=O)[nH]c(=O)c1CO` [pentoxyl]: 1.0 fold; for `COc1cc(C=O)ccc1O` [vanillin]: 312.5 fold.
On the same count and under the same terms, the same measure for `NCCNCCO` [Aminoethylethanolamine]: 15.4 fold; for `Nc1c2c(O)nc(O)cc2nn1-c1ccccc1` [3-amino-2-phenyl-2H-pyrazolo[4,3-c]pyridine-4,6-diol]: 1.8 fold.
Same read-out and setting: the same measure for `Cc1c[nH]c(=O)nc1N` [5-Methylcytosine]: 2.1 fold.
